Test results from patent US8779141B2, “Viral inhibitors” (Gilead Sciences, Inc., priority 2002, dated 2014).

Tested on: BVDV-1 (strain PE515)
Experiment: Anti-BVDV assay, virus-induced cytopathic effect in MDBK cells (MTS)
Format: cell-based, Bovine Viral Diarrhea Virus
Protocol: Madin-Darbey Bovine Kidney (MDBK) cells were maintained in Dulbecco's modified Eagle medium (DMEM) supplemented with BVDV-free 5% fetal calf serum (DMEME-FCS) at 37° C. in a humidified, 5% CO2 atmosphere. BVDV-1 (strain PE515) was used to assess the antiviral activity in MDBK cells. Vero cells were maintained in the same way as MDBK cells. Vero cells were infected with Coxsackie B3 virus (strain Nancy).
Ninety-six-well cell culture plates were seeded with MDBK cells in DMEM-FCS so that cells reached 24 hr later confluency. Then medium was removed and serial 5-fold dilutions of the test compounds were added in a total volume of 100 ul, after which the virus inoculum (100 ul) was added to each well. […] Uninfected cells and cells receiving virus without compound were included in each assay plate. After 5 days, medium was removed and 90 μl of DMEM-FCS and 10 ul of MTS/PMS solution (Promega) was added to each well. Following a 2 hr incubation period at 37° C. the optical density of the wells was read at 498 nm in a microplate reader.

[1] = Table 9, SI: IC50/EC50 (MDBK growth / anti-BVDV)

Row | SMILES | SI [1] | SI (Table 10, SI: MTC/EC50)
1 | Fc1ccc(Cn2ccc3nc(-c4cc(F)ccc4F)nc-3c2)c(F)c1 [GPC-13, 2-(2,5-Difluorophenyl)-5-[(2,4-difluorophenyl)methyl]-5H-imidazo[4,5-c]pyridine] | >1492 | –
2 | Fc1cccc(F)c1-c1nc2ccn(Cc3ccccc3)cc-2n1 [GPJN-1, 5-Benzyl-2-(2,6-difluorophenyl)-5H-imidazo[4,5-c]pyridine] | >345 | –
3 | Fc1cccc(F)c1Cn1ccc2nc(-c3ccccc3)nc-2c1 [GPJN-3, 5-[(2,6-Difluorophenyl)methyl]-2-phenyl-5H-imidazo[4,5-c]pyridine] | 1003 | –
4 | c1ccc(Cn2ccc3nc(-c4ccccc4)nc-3c2)cc1 [GPJN-4, 5-Benzyl-2-phenyl-5H-imidazo[4,5-c]pyridine] | 1144 | –
5 | Clc1ccccc1Cn1ccc2nc(-c3ccccc3)nc-2c1 [GPJN-7, 5-[(2-Chlorophenyl)methyl]-2-phenyl-5H-imidazo[4,5-c]pyridine] | 525 | –
6 | Clc1cccc(Cn2ccc3nc(-c4ccccc4)nc-3c2)c1 [GPJN-8, 5-[(3-Chlorophenyl)methyl]-2-phenyl-5H-imidazo[4,5-c]pyridine] | 592 | –
7 | COc1ccccc1Cn1ccc2nc(-c3ccccc3)nc-2c1 [GPJN-11, 5-[(2-Methoxyphenyl)methyl]-2-phenyl-5H-imidazo[4,5-c]pyridine] | 1135 | –
8 | COc1cccc(Cn2ccc3nc(-c4ccccc4)nc-3c2)c1 [GPJN-12, 5-[(3-Methoxyphenyl)methyl]-2-phenyl-5H-imidazo[4,5-c]pyridine] | 949 | –
9 | COc1ccc(Cn2ccc3nc(-c4ccccc4)nc-3c2)cc1 [GPJN-13, 5-[(4-Methoxyphenyl)methyl]-2-phenyl-5H-imidazo[4,5-c]pyridine] | 1058 | –
10 | c1ccc(CCCn2ccc3nc(-c4ccccc4)nc-3c2)cc1 [GPJN-14, 2-Phenyl-5-(3-phenylpropyl)-5H-imidazo[4,5-c]pyridine] | 573 | –
11 | Cc1ccc(Cn2ccc3nc(-c4ccccc4)nc-3c2)cc1 [GPJN-15, 5-[(4-Methylphenyl)methyl]-2-phenyl-5H-imidazo[4,5-c]pyridine] | 3079 | –
12 | Fc1ccccc1Cn1ccc2nc(-c3ccccc3)nc-2c1 [GPJN-17, 5-[(2-Fluorophenyl)methyl]-2-phenyl-5H-imidazo[4,5-c]pyridine] | 517 | –
13 | Fc1cccc(Cn2ccc3nc(-c4ccccc4)nc-3c2)c1 [GPJN-18, 5-[(3-Fluorophenyl)methyl]-2-phenyl-5H-imidazo[4,5-c]pyridine] | 2933 | –
14 | Fc1ccc(Cn2ccc3nc(-c4ccccc4)nc-3c2)cc1 [GPJN-19, 5-[(4-Fluorophenyl)methyl]-2-phenyl-5H-imidazo[4,5-c]pyridine] | 3012 | –
15 | Cc1ccccc1Cn1ccc2nc(-c3ccccc3)nc-2c1 [GPJN-20, 5-[(2-Methylphenyl)methyl]-2-phenyl-5H-imidazo[4,5-c]pyridine] | 169 | –
16 | Cc1cccc(Cn2ccc3nc(-c4ccccc4)nc-3c2)c1 [GPJN-21, 5-[(3-Methylphenyl)methyl]-2-phenyl-5H-imidazo[4,5-c]pyridine] | 1020 | –
17 | Brc1ccc(Cn2ccc3nc(-c4ccccc4)nc-3c2)cc1 [GPJN-22, 5-[(4-Bromophenyl)methyl]-2-phenyl-5H-imidazo[4,5-c]pyridine] | 450 | –
18 | N#Cc1ccc(Cn2ccc3nc(-c4ccccc4)nc-3c2)cc1 [GPJN-23, 4-[(2-Phenyl-5H-imidazo[4,5-c]pyridin-5-yl)methyl]-benzonitrile] | 3230 | –
19 | FC(F)(F)c1ccc(Cn2ccc3nc(-c4ccccc4)nc-3c2)cc1 [GPJN-24, 2-Phenyl-5-[[4-(trifluoromethyl)phenyl]methyl]-5H-imidazo[4,5-c]pyridine] | 519 | –
20 | Clc1ccc(Cn2ccc3nc(-c4ccccc4)nc-3c2)s1 [GPJN-25, 5-[(5-Chloro-2-thienyl)methyl]-2-phenyl-5H-imidazo[4,5-c]pyridine] | 4138 | –
21 | c1ccc(-c2nc3ccn(Cc4ccc5ccccc5c4)cc-3n2)cc1 [GPJN-26, 5-(2-Naphthalenylmethyl)-2-phenyl-5H-imidazo[4,5-c]pyridine] | >2439 | –
22 | c1ccc(CCCCn2ccc3nc(-c4ccccc4)nc-3c2)cc1 [GPJN-27, 2-Phenyl-5-(4-phenylbutyl)-5H-imidazo[4,5-c]pyridine] | >48 | –
23 | CC(C)=CCn1ccc2nc(-c3ccccc3)nc-2c1 [GPJN-28, 5-(3-Methyl-2-butenyl)-2-phenyl-5H-imidazo[4,5-c]pyridine] | >230 | –
24 | c1ccc(-c2nc3ccn(Cc4ccncc4)cc-3n2)cc1 [GPJN-31, 2-Phenyl-5-(4-pyridinylmethyl)-5H-imidazo[4,5-c]pyridine] | >222 | –

Row | SMILES | SI [1] | SI (Table 10, SI: MTC/EC50)
25 | CC(c1ccccc1)n1ccc2nc(-c3ccccc3)nc-2c1 (stereo not drawn) [GPJN-33, 2-Phenyl-5-(1-phenylethyl)-5H-imidazo[4,5-c]pyridine] | 350 | –
26 | c1ccc(-c2nc3ccn(Cc4ccccn4)cc-3n2)cc1 [GPJN-34, 2-Phenyl-5-(2-pyridinylmethyl)-5H-imidazo[4,5-c]pyridine] | >116 | –
27 | c1ccc(-c2nc3ccn(Cc4cccnc4)cc-3n2)cc1 [GPJN-35, 2-Phenyl-5-(3-pyridinylmethyl)-5H-imidazo[4,5-c]pyridine] | >273 | –
28 | c1ccc(-c2nc3ccn(Cc4cccc5ccccc45)cc-3n2)cc1 [GPJN-36, 5-(1-Naphthalenylmethyl)-2-phenyl-5H-imidazo[4,5-c]pyridine] | 1297 | –
29 | c1ccc(-c2nc3ccn(CC4CCCCC4)cc-3n2)cc1 [GPJN-37, 5-(Cyclohexylmethyl)-2-phenyl-5H-imidazo[4,5-c]pyridine] | 137 | –
30 | CC(C)CCn1ccc2nc(-c3ccccc3)nc-2c1 [GPJN-38, 5-(3-Methylbutyl)-2-phenyl-5H-imidazo[4,5-c]pyridine] | 213 | –
31 | Fc1ccc(Cn2ccc3nc(-c4c(F)cccc4F)nc-3c2)cc1 [GPJN-39, 2-(2,6-Difluorophenyl)-5-[(4-fluorophenyl)methyl]-5H-imidazo[4,5-c]pyridine] | >408 | –
32 | Fc1cc(F)c(Cn2ccc3nc(-c4c(F)cccc4F)nc-3c2)c(F)c1 [GPJN-41, 2-(2,6-Difluorophenyl)-5-[(2,4,6-trifluorophenyl)methyl]-5H-imidazo[4,5-c]pyridine] | >172 | –
33 | CCc1nc2ccn(Cc3ccc(Br)cc3)cc-2n1 [GPJN-48, 5-[(4-Bromophenyl)methyl]-2-ethyl-5H-imidazo[4,5-c]pyridine] | >285 | –
34 | Brc1ccc(Cn2ccc3nc(-c4ccncc4)nc-3c2)cc1 [GPJN-49, 5-[(4-Bromophenyl)methyl]-2-(4-pyridinyl)-5H-imidazo[4,5-c]pyridine] | 344 | –
35 | Brc1ccc(Cn2ccc3nc(-c4cccs4)nc-3c2)cc1 [GPJN-53, 5-[(4-Bromophenyl)methyl]-2-(2-thienyl)-5H-imidazo[4,5-c]pyridine] | 2028 | –
36 | Clc1ccccc1-c1nc2ccn(Cc3ccc(Br)cc3)cc-2n1 [GPJN-54, 5-[(4-Bromophenyl)methyl]-2-(2-chlorophenyl)-5H-imidazo[4,5-c]pyridine] | 349 | –
37 | Clc1cccc(-c2nc3ccn(Cc4ccc(Br)cc4)cc-3n2)c1 [GPJN-55, 5-[(4-Bromophenyl)methyl]-2-(3-chlorophenyl)-5H-imidazo[4,5-c]pyridine] | >1666 | –
38 | Brc1ccc(Cn2ccc3nc(-c4ccc5ccccc5c4)nc-3c2)cc1 [GPJN-63, 5-[(4-Bromophenyl)methyl]-2-(2-naphthalenyl)-5H-imidazo[4,5-c]pyridine] | 1023 | –
39 | Brc1ccc(Cn2ccc3nc(-c4cccc(Br)c4)nc-3c2)cc1 [GPJN-65, 2-(3-Bromophenyl)-5-[(4-bromophenyl)methyl]-5H-imidazo[4,5-c]pyridine] | >10.000 | –
40 | Ic1ccc(Cn2ccc3nc(-c4ccccc4)nc-3c2)cc1 [GPJN-68, 5-[(4-Iodophenyl)methyl]-2-phenyl-5H-imidazo[4,5-c]pyridine] | 653 | –
41 | c1ccc(OCCn2ccc3nc(-c4ccccc4)nc-3c2)cc1 [GPJN-73, 5-(2-Phenoxyethyl)-2-phenyl-5H-imidazo[4,5-c]pyridine] | >5882 | –
42 | C(=Cc1ccccc1)Cn1ccc2nc(-c3ccccc3)nc-2c1 [GPJN-75, 2-Phenyl-5-(3-phenyl-2-propenyl)-5H-imidazo[4,5-c]pyridine] | 1761 | –
43 | Brc1cccc(-c2nc3ccn(Cc4ccc(I)cc4)cc-3n2)c1 [GPJN-79, 2-(3-Bromophenyl)-5-[(4-iodophenyl)methyl]-5H-imidazo[4,5-c]pyridine] | >1204 | –
44 | Clc1ccc(Cn2ccc3nc(-c4cccc(Br)c4)nc-3c2)cc1 [GPJN-80, 2-(3-Bromophenyl)-5-[(4-chlorophenyl)methyl]-5H-imidazo[4,5-c]pyridine] | >555 | –
45 | Brc1cccc(-c2nc3ccn(CCOc4ccccc4)cc-3n2)c1 [GPJN-100, 2-(3-Bromophenyl)-5-(2-phenoxyethyl)-5H-imidazo[4,5-c]pyridine] | – | 227
46 | Clc1cn(Cc2ccc(Br)cc2)cc2nc(-c3ccccc3)nc1-2 [GPJN-103, 5-[(4-Bromophenyl)methyl]-7-chloro-2-phenyl-5H-imidazo[4,5-c]pyridine] | – | 328
47 | Cc1cn(Cc2ccc(Br)cc2)cc2nc(-c3ccccc3)nc1-2 [GPJN-104, 5-[(4-Bromophenyl)methyl]-7-methyl-2-phenyl-5H-imidazo[4,5-c]pyridine] | – | 74
48 | c1ccc(-c2ccc(Cn3ccc4nc(-c5cccc6ccccc56)nc-4c3)cc2)cc1 [GPJN-115, 5-([1,1′-Biphenyl]-4-ylmethyl)-2-(1-naphthalenyl)-5H-imidazo[4,5-c]pyridine] | – | 17
